Anti-infective test results gathered from many reports (values: NIAID ChemDB through PubChem).

Common to all: growth or infection tests; agent: Herpes simplex virus 1; cell line: PRK; method: cytopathic effect; endpoint: EC50

a–b is a range or a potency band. Blank or dashed fields: not listed here. ECn: concentration that inhibits the pathogen or its effect by n%. Lines come from different laboratories, so protocols vary.

compound	strain	result
O=c1[nH]c(=O)n([C@H]2C[C@H](O)[C@@H](CO)O2)cc1I	VEX538	0.1 µg/mL
Nc1nc(Cl)c2ncn(COCCO)c2n1	-	2 µg/mL
CC(=O)OC[C@H]1C[C@@H](n2cc(Br)c(=O)[nH]c2=O)[C@H](OC(C)=O)C1	377	100 µg/mL
Nc1ncnc2c1ncn2C1CC(CO)[C@@H](O)[C@H]1O	-	4 µg/mL
CON1CCc2c([nH]c3ccccc23)[C@@H]1[C@@H](N)CSC	KOS	>100 µg/mL
O=C(O)CP(=O)(O)O	KOS F McIntyre	10 µg/mL
Nc1ncnc2c1ncn2[C@@H]1O[C@H](COP(=O)(O)O[C@@H]2[C@H](O)[C@@H](COP(=O)(O)O[C@@H]3[C@H](O)[C@@H](COP(=O)(O)OP(=O)(O)OP(=O)(O)O)O[C@H]3n3cnc4c(N)ncnc43)O[C@H]2n2cnc3c(N)ncnc32)[C@@H](O)[C@H]1O	-	>400 µg/mL
Cc1nc(Cc2ccccc2)c2[nH]c(=S)[nH]c(=O)n12	KOS	150 µg/mL
Nc1nc2c(ncn2COCCOP(=O)(O)O[C@@H]2[C@H](O)[C@@H](COP(=O)(O)O[C@@H]3[C@H](O)[C@@H](CO)O[C@H]3n3cnc4c(N)ncnc43)O[C@H]2n2cnc3c(N)ncnc32)c(=O)[nH]1	KOS	0.7 µg/mL
O=c1[nH]c(=O)n([C@H]2C[C@H](O)[C@@H](COP(=O)(O)O)O2)cc1I	KOS	0.2 µg/mL
Nc1ncnc2c1ncn2[C@@H]1C[C@H](CO)[C@@H](O)[C@H]1O	-	2 µg/mL
O=c1[nH]c(=O)n([C@@H]2O[C@H](CO)[C@@H](O)[C@@H]2O)cc1/C=C/Br	KOS	0.1 µg/mL
O=c1[nH]c(=O)n([C@H]2C[C@H](O)[C@@H](COP(=O)(O)O)O2)cc1CCc1ccccc1	F	10 µg/mL
O=c1[nH]c(=O)n([C@H]2C[C@H](O)[C@@H](CO)O2)cc1/C=C\Cl	VMW1837 (TK-)	>200 µg/mL
CO[C@@H]1[C@H](O)[C@@H](CO)O[C@H]1n1cnc2c(N)ncnc21	-	>100 µg/mL
CC(=O)OCCOCn1cnc2c(Cl)ncnc21	-	70 µg/mL
NC1CSCON2CCc3c([nH]c4ccccc34)[C@H]12	B2006 (TK-)	0.7 µg/mL
CCCc1cn([C@H]2C[C@H](O)[C@@H](CO)O2)c(=O)[nH]c1=O	KOS F McIntyre	0.8 µg/mL
CC(=O)OCCOCn1cnc2c(Cl)nc(N)nc21	-	20 µg/mL
O=c1[nH]c(=O)n(C2CC(O)C(CO)O2)cc1CCCCl	F	0.26 µg/mL
O=c1[nH]c(=O)n([C@H]2C[C@H](O)[C@@H](CO)O2)cc1C(F)(F)F	KOS F McIntyre	0.6 µg/mL
COC[C@H]1O[C@@H](n2cnc3c(N)ncnc32)[C@H](O)[C@@H]1O	-	>100 µg/mL
O=c1[nH]c(=O)n([C@H]2C[C@@H](CO)[C@H](O)C2)cc1/C=C/Br	F	10 µg/mL
O=Cc1cn([C@H]2C[C@H](O)[C@@H](CO)O2)c(=O)[nH]c1=O	VEW257	1 µg/mL
Nc1nc2c(nc(Cl)n2COCCO)c(=O)[nH]1	-	70 µg/mL
CCc1cn([C@H]2C[C@H](O)[C@@H](CO)O2)c(N)nc1=O	VMW1837 (TK-)	>400 µg/mL
CSCc1cn([C@H]2C[C@H](O)[C@@H](CO)O2)c(=O)[nH]c1=O	VDX348	40 µg/mL
Cc1cn([C@@H]2O[C@H](CO)[C@@H](O)[C@@H]2O)c(=O)[nH]c1=O	KOS F McIntyre	0.5 µg/mL
CN1CCN(Cc2cn([C@H]3C[C@H](O)[C@@H](CO)O3)c(=O)[nH]c2=O)CC1	KOS	>200 µg/mL
CCc1cn([C@H]2C[C@H](O)[C@@H](CO)O2)c(=O)[nH]c1=O	KOS	0.2 µg/mL
O=c1[nH]c(=O)n([C@H]2C[C@H](O)[C@@H](CO)O2)cc1/C=C/Br	5 (PAA-resistant)	0.02 µg/mL
O=c1[nH]c(=O)n([C@H]2C[C@H](O)[C@@H](COP(=O)([O-])OP(=O)([O-])OC[C@@H]3OC(O)[C@H](O)[C@H](O)[C@H]3O)O2)cc1I	KOS	0.4 µg/mL
O=c1[nH]c(=O)n([C@H]2C[C@@H](CO)[C@H](O)C2)cc1I	KOS	1 µg/mL
Nc1ncnc2c1ncn2[C@@H]1O[C@H](CO)[C@@H](O)[C@H]1OP(=O)(O)OC[C@H]1O[C@@H](n2cnc3c(N)ncnc32)[C@H](OP(=O)(O)OC[C@H]2O[C@@H](n3cc(/C=C/Br)c(=O)[nH]c3=O)C[C@@H]2O)[C@@H]1O	McIntyre	0.07 µg/mL
Nc1ccn([C@@H]2C[C@H](CO)[C@@H](O)[C@H]2O)c(=O)n1	KOS	100 µg/mL
CN(C)c1ncnc2c1ncn2COCCO	-	>400 µg/mL
[N-]=[N+]=Nc1cccc(/C=C/c2cn([C@H]3C[C@H](O)[C@@H](COP(=O)(O)O)O3)c(=O)[nH]c2=O)c1	KOS	>200 µg/mL
NC1CCCON2CCc3c([nH]c4ccccc34)[C@H]12	B2006 (TK-)	2 µg/mL
Nc1nc(=O)c(/C=C/Br)cn1[C@H]1C[C@H](O)[C@@H](CO)O1	F	70 µg/mL
CCCc1cn([C@H]2C[C@H](O)[C@@H](COP(=O)(O)O)O2)c(=O)[nH]c1=O	B2006 (TK-)	>797 µg/mL
O=c1[nH]c(=O)n([C@@H]2C[C@H](CO)[C@@H](O)C2)cc1I	VMW1837 (TK-)	>400 µg/mL
N#CSc1cn([C@@H]2O[C@H](CO)[C@@H](O)[C@H]2O)c(=O)[nH]c1=O	-	40 µg/mL
C=CCc1ncn2c(=O)[nH]c(NC(C)=O)nc12	KOS	>200 µg/mL
O=c1[nH]c(=O)n([C@H]2C[C@H](O)[C@@H](CO)O2)cc1I	-	0.1 µg/mL
Nc1nc(=O)n([C@H]2C[C@H](O)[C@@H](CO)O2)cc1/C=C/Cl	B2006 (TK-)	>400 µg/mL
O=c1[nH]c(=O)n([C@H]2C[C@H](O)[C@@H](CO)O2)cc1CCCl	KOS	0.15 µg/mL
N#CSc1cn([C@@H]2O[C@H](CO)[C@@H](O)[C@@H]2O)c(=O)[nH]c1=O	-	4 µg/mL
Nc1ncnc2c1ncn2C[C@@H](CO)OCP(=O)(O)O	F	1–3 µg/mL
O=c1[nH]c(=O)n([C@@H]2OC3COP(=O)(O)OC3[C@H]2O)cc1I	KOS	200 µg/mL
C=CCc1nc(C)n2c(=O)[nH]c(NC(C)=O)nc12	KOS	>200 µg/mL
CCCc1cn([C@H]2C[C@H](O)[C@@H](CO)O2)c(=O)[nH]c1=O	McIntyre	1.9 µg/mL

The last 7 rows once more:

| compound | strain | result |
|---|---|---|
| Nc1nc(=O)n([C@H]2C[C@H](O)[C@@H](CO)O2)cc1/C=C/Cl | B2006 (TK-) | >400 µg/mL |
| O=c1[nH]c(=O)n([C@H]2C[C@H](O)[C@@H](CO)O2)cc1CCCl | KOS | 0.15 µg/mL |
| N#CSc1cn([C@@H]2O[C@H](CO)[C@@H](O)[C@@H]2O)c(=O)[nH]c1=O | - | 4 µg/mL |
| Nc1ncnc2c1ncn2C[C@@H](CO)OCP(=O)(O)O | F | 1–3 µg/mL |
| O=c1[nH]c(=O)n([C@@H]2OC3COP(=O)(O)OC3[C@H]2O)cc1I | KOS | 200 µg/mL |
| C=CCc1nc(C)n2c(=O)[nH]c(NC(C)=O)nc12 | KOS | >200 µg/mL |
| CCCc1cn([C@H]2C[C@H](O)[C@@H](CO)O2)c(=O)[nH]c1=O | McIntyre | 1.9 µg/mL |